# Screening data, single-dose tests

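Whole-cell growth test on Mycobacterium tuberculosis, read after 4 days in a medium based on cholesterol and the lipid DPPC; the read-out is not stated. Compounds at 500 µM. The record gives no direction; compounds that gave an IC50 in retests scored well above the rest, so higher reads as more growth inhibition. About 18,000 compounds were tested under these conditions; 5% (about 900) showed 50% or more at least once.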

Results are given as percent effect.
The record does not define 0% and 100%; most values in the screen are far below 50% and negative numbers occur (in some assays of this library far below -100).
This is part of a subset picked to be rich in strong results.

{"smiles": "Cc1ccc(CN2CCNC(=O)CC2)c(Br)c1", "effect": 23.26}
{"smiles": "CN(C)CCCNC(=O)c1cccc2cccnc12", "effect": 7.988}
{"smiles": "CCNCc1ccc2c(c1)OCO2", "effect": 31.3}
{"smiles": "CO[C@H]1CNCC1NC(=O)Cc1cccc(Cl)c1", "stereo": "some centres undefined", "effect": 18.88}
{"smiles": "COc1ccc(OC)c(C(=O)Cn2cnc(C#N)n2)c1", "effect": -1.135}
{"smiles": "CC(=O)Nc1ccc(F)c(C(=O)N2CCCCO2)c1", "effect": 4.044}
{"smiles": "O=C(CN1C[C@H]2CC[C@@H](C1)[C@H]2O)Nc1ccc(F)cc1", "effect": 33.52}
{"smiles": "CCC(CC)C(CN)N(C)C", "stereo": "centres undefined", "effect": 56.05}
{"smiles": "COc1ccc(OCCSCC(=O)NCCC#N)cc1", "effect": 86.24}
{"smiles": "Cc1ccc(C(=O)N2C[C@H](C3CC3)[C@@H](N)C2)s1", "effect": 7.192}
{"smiles": "COC(=O)[C@@H]1C[C@@H](O)CN1C(C)Cc1ccsc1", "stereo": "some centres undefined", "effect": 36.88}
{"smiles": "CN(Cc1ccc(S(C)(=O)=O)cc1)Cc1nccn1C", "effect": 5.053}
{"smiles": "Cc1n[nH]c(C)c1NC(=O)OC(C)(C)C", "effect": -0.277}
{"smiles": "CN(C)C(=O)CN(C1CCCC1)C1CC1", "effect": -5.921}
{"smiles": "Cc1nc(NC2CC2)sc1C(=O)NCc1ccncc1", "effect": 17.5}
{"smiles": "CC(C(=O)Nc1ccc(Br)cc1)n1cnnn1", "stereo": "centres undefined", "effect": 78.13}
{"smiles": "COC1CCN(C(=O)Cc2ccc(N(C)C)cc2)C1", "stereo": "centres undefined", "effect": 58.7}
{"smiles": "Cc1noc(C)c1CN1CCCC(C(N)=O)C1", "stereo": "centres undefined", "effect": 0.4698}
{"smiles": "O=S(=O)(NCCC(O)c1ccccc1)c1c[nH]cn1", "stereo": "centres undefined", "effect": 4.613}
{"smiles": "OCCn1c(CO)nc2ccccc21", "effect": 11.31}
{"smiles": "CSCCOC(=O)c1ccn(C(C)C)n1", "effect": 56.06}
{"smiles": "COCCC(=O)Nc1ccc(OCC(F)(F)F)nc1", "effect": 25.77}
{"smiles": "CC1=CC(=O)N(Cc2ccccc2)C1=O", "effect": 112}
{"smiles": "COc1ccc(NC(=O)NC2CCC(O)CC2)cc1", "stereo": "centres undefined", "effect": -1.051}
{"smiles": "COc1cccc(N2CCNCC2C)c1", "stereo": "centres undefined", "effect": 5.558}
{"smiles": "CN(Cc1ccc(Oc2ccccc2)cc1)C(=O)CN", "effect": 99.1}
{"smiles": "O=C(NCc1nccs1)c1ccc(F)cc1F", "effect": 31.84}
{"smiles": "O=C(c1ccc[nH]1)N1CCCN(Cc2cscn2)CC1", "effect": -2.91}
{"smiles": "OCCC1CCN(Cc2ccccc2)C1", "stereo": "centres undefined", "effect": 50.7}
{"smiles": "NC1(c2ccccn2)CC1", "effect": 10.37}
{"smiles": "Cc1c(C(=O)Nc2ccc3c(c2)OCCO3)cnn1C", "effect": 57.49}
{"smiles": "CC(C)N(CC(=O)N1CCCC1)CC(C)(C)O", "effect": -2.511}
{"smiles": "CC(CC(N)=O)C(=O)NCCCc1ccc(Br)cc1F", "stereo": "centres undefined", "effect": -8.962}
{"smiles": "CCc1ccc(CN(C)C(=O)CCNC(C)=O)nc1", "effect": -16.65}
{"smiles": "COc1ccc(CSCC(N)=O)cc1Br", "effect": 63.17}
{"smiles": "CN(C)S(=O)(=O)Nc1cccc(OCCF)c1", "effect": 29.65}
{"smiles": "NC(=O)CSc1ccnc(SCC(N)=O)n1", "effect": -0.594}
{"smiles": "Cc1ccccc1CC(=O)NC1CCS(=O)(=O)C1", "stereo": "centres undefined", "effect": 6.321}
{"smiles": "CC(O)CN1CCN(C)CC1", "stereo": "centres undefined", "effect": -1.404}
{"smiles": "COC(=O)c1ccc2oc(=O)[nH]c2c1", "effect": 9.084}
{"smiles": "COCCC(CO)NC(=O)c1cnn(C(C)C)c1C", "stereo": "centres undefined", "effect": 66.39}
{"smiles": "CCNCC(C)(O)c1ccccc1", "stereo": "centres undefined", "effect": 18.87}
{"smiles": "Cc1noc(C)c1CN1CCC(C(=O)NC2CC2)CC1", "effect": -8.952}
{"smiles": "CC(C)c1ncc(C(=O)NC2(c3nnc[nH]3)CCC2)s1", "effect": 2.605}
{"smiles": "CSCc1cc(F)ccc1CNC(=O)[C@H]1CCC(=O)N1", "effect": 9.953}
{"smiles": "COC(=O)CSc1nc(N)c2ccsc2n1", "effect": 99.43}
{"smiles": "Cn1cc(C2CSCCN2Cc2ccon2)cn1", "stereo": "centres undefined", "effect": 0.2415}

5 of the entries, repeated:

{"smiles": "COCCC(=O)Nc1ccc(OCC(F)(F)F)nc1", "effect": 25.77}
{"smiles": "CCC(CC)C(CN)N(C)C", "stereo": "centres undefined", "effect": 56.05}
{"smiles": "OCCC1CCN(Cc2ccccc2)C1", "stereo": "centres undefined", "effect": 50.7}
{"smiles": "CN(C)C(=O)CN(C1CCCC1)C1CC1", "effect": -5.921}
{"smiles": "CCNCC(C)(O)c1ccccc1", "stereo": "centres undefined", "effect": 18.87}

Measurements from “University of Dundee, Small-Polar-MMV Screening Library” (2021), ChEMBL document CHEMBL3988442.